Measurements as given in paper PMC7150935 (Toxins, 2020).

Tests used:
mice = test: Intracranial injection into mice; conditions: intracranial injections; original characterization, not previously reported
Swiss Webster mice = test: Intraperitoneal injection in mice, observation of paralysis; conditions: ~2.3 nmol/g mouse i.p.; three mice (22.34, 8.65, 8.52 g)

CC[C@H](C)[C@@H]1NC(=O)[C@H](CC(C)C)NC(=O)[C@H](CCCNC(=N)N)NC(=O)[C@H](CC(=O)O)NC(=O)[C@H](CCCNC(=N)N)NC(=O)[C@H](Cc2ccccc2)NC(=O)[C@H](Cc2ccc(O)cc2)NC(=O)[C@H](CC(C)C)NC(=O)[C@@H]2CCCN2C(=O)[C@@H]2CSSC[C@@H](C(=O)O)NC(=O)[C@@H]3CSSC[C@H](NC(=O)[C@H](CCCCN)NC(=O)[C@@H]4CCC(=O)N4)C(=O)N[C@@H](CSSC[C@H](NC1=O)C(=O)N1CCC[C@H]1C(=O)N3)C(=O)N[C@@H](CO)C(=O)NCC(=O)NCC(=O)N[C@@H](CO)C(=O)N2 [αM-MIIIJ]
visible phenotype (mice): did not elicit a visible phenotype
reduced motor function or paralysis (Swiss Webster mice): without any reduced motor function or paralysis for >1.5 h
